Measured values from several laboratories, pooled; numbers as filed in NIAID ChemDB.

Common to all: whole-cell or culture tests; organism: Mycobacterium avium complex; measure: MIC

Lines come from different laboratories, so protocols vary.

compound | strain | result
Clc1nc(Sc2ccncc2)c2[nH]cnc2n1 | NJ211 | >12.8 µg/mL
CCN(CC)CNC(=O)c1cnc(N(CC)CC)cn1 | ATCC49601 | >128 µg/mL
COc1ccc(Sc2ncccn2)cc1OC | NJ211 | >12.8 µg/mL
CCCCCCCCOC1O[C@@H](C(O)COC2O[C@@H](C(O)CO)[C@H](O)[C@H]2O)[C@H](O)[C@H]1O | NJ3404 | >128 µg/mL
NC(=O)c1cnc(Cl)cn1 | ATCC49601 | 32 µg/mL
CC[C@H]1OC(=O)[C@H](C)[C@@H](O[C@H]2C[C@@](C)(OC)[C@@H](OC(C)=O)[C@H](C)O2)[C@H](C)[C@@H](O[C@@H]2O[C@H](C)C[C@H](N(C)C)[C@H]2OC(=O)NN2CCCC2)C(C)(O)C[C@@H](C)/C(=N\OCCCC2CCCCC2)[C@H](C)[C@@H](O)[C@]1(C)O | 20092 (clarithromycin-resistant) | 3.13 µg/mL
COc1ccc(Sc2ccncc2)cc1OC | NJ211 | >12.8 µg/mL
CCCCCCCCCCNNC(=O)O[C@H]1[C@H](O[C@@H]2[C@@H](C)[C@H](O[C@H]3C[C@@](C)(OC)[C@@H](OC(C)=O)[C@H](C)O3)[C@@H](C)C(=O)O[C@H](CC)[C@@](C)(O)[C@H](O)[C@@H](C)/C(=N/OCCCC3CCCCC3)[C@H](C)CC2(C)O)O[C@H](C)C[C@@H]1N(C)C | 20039 (clarithromycin-susceptible) | >50 µg/mL
CN1CCN(CNC(=O)c2cnccn2)CC1 | ATCC49601 | >128 µg/mL
CCNC(=O)[C@@H](NC(=O)Cc1ccccc1)[C@@H]1N[C@@H](C(=O)NCCNC(=O)[C@@H]2N[C@@H]([C@H](NC(=O)Cc3ccccc3)C(=O)NCC)SC2(C)C)C(C)(C)S1 | CIPT 140310005 | 25 µg/mL
CCCCCCCCO[C@@H]1O[C@@H](C(CO[C@@H]2O[C@@H](C(O)CO)[C@H](O)[C@H]2O)OC)[C@H](OC)[C@H]1OC | NJ168 | >128 µg/mL
CC[C@H]1OC(=O)[C@H](C)[C@@H](OC(=O)CCc2ccccc2)[C@H](C)[C@@H](O[C@@H]2O[C@H](C)C[C@H](N(C)C)[C@H]2O)C(C)(O)C[C@@H](C)/C(=N\OCCCOc2ccccc2)[C@H](C)[C@@H](O)[C@]1(C)O | 20096 (clarithromycin-resistant) | 3.13 µg/mL
COc1ccc(Sc2nc(Cl)nc3nc[nH]c23)cc1 | NJ211 | >12.8 µg/mL
CC1(C)S[C@@H]2[C@H](NC(=O)C(C(=O)O)c3ccccc3)C(=O)N2[C@H]1C(=O)O | CIPT 140310005 | 25 µg/mL
CC[C@H]1OC(=O)[C@H](C)[C@@H](O[C@H]2C[C@@](C)(OC)[C@@H](OC(C)=O)[C@H](C)O2)[C@H](C)[C@@H](O[C@@H]2O[C@H](C)C[C@H](N(C)C)[C@H]2OC(=O)NN(C)Cc2ccccc2)C(C)(O)C[C@@H](C)/C(=N\OCCCC2CCCCC2)[C@H](C)[C@@H](O)[C@]1(C)O | 20096 (clarithromycin-resistant) | 6.25 µg/mL
Cc1onc(-c2ccccc2Cl)c1C(=O)N[C@@H]1C(=O)N2[C@@H]1SC(C)(C)[C@@H]2C(=O)O | CIPT 140310005 | 25 µg/mL
CCCCCCCCSc1nc(Cl)nc2nc[nH]c12 | NJ211 | >12.8 µg/mL
CCN=c1cc2n(-c3ccc(Cl)cc3)c3ccccc3nc-2cc1Nc1ccc(Cl)cc1 | 101 | 0.25 µg/mL
CCCCCCCCO[C@@H]1O[C@@H](C(CO[C@@H]2O[C@@H](C(COC(C)=O)OC(C)=O)[C@H](OC(C)=O)[C@H]2OC(C)=O)OC)[C@H](OC)[C@H]1OC | NJ168 | >128 µg/mL
CC(C)N=c1cc2n(-c3ccc(Cl)cc3)c3ccccc3nc-2cc1Nc1ccc(Cl)cc1 | 453 | 0.25 µg/mL
COc1ccc(OC)c(Sc2ccncc2)c1 | NJ211 | >12.8 µg/mL
CC[C@H]1OC(=O)[C@H](C)[C@@H](O[C@H]2C[C@@](C)(OC)[C@@H](O)[C@H](C)O2)[C@H](C)[C@@H](O[C@@H]2O[C@H](C)C[C@H](N(C)C)[C@H]2O)[C@](C)(OC)C[C@@H](C)C(=O)[C@H](C)[C@@H](O)[C@]1(C)O | 905 | 8 µg/mL
O=C(NCN1CCCC1)c1cnccn1 | 101 | >128 µg/mL
Nc1ccc(S(=O)(=O)c2ccc(N)cc2)cc1 | DW21 | 64 µg/mL
CN[C@@H]1[C@@H](O)C(O[C@@H]2[C@@H](O)[C@H](OC3O[C@H](CN)[C@@H](O)[C@H](O)[C@H]3O)[C@@H](N)C[C@H]2NC(=O)[C@@H](O)CN)OC[C@]1(C)O | T11 | 12.5 µg/mL
CO[C@H]1/C=C/O[C@@]2(C)Oc3c(C)c(O)c4c(O)c(c(/C=N/N5CCN(C/C=C/c6ccccc6)CC5)c(O)c4c3C2=O)NC(=O)/C(C)=C\C=C\[C@H](C)[C@H](O)[C@@H](C)[C@@H](O)[C@@H](C)[C@H](OC(C)=O)[C@@H]1C | N-260 | 0.78 µg/mL
CN[C@@H]1[C@H](O[C@H]2[C@H](O[C@H]3[C@H](O)[C@@H](O)[C@H](N=C(N)N)[C@@H](O)[C@@H]3N=C(N)N)O[C@@H](C)[C@]2(O)C=O)O[C@@H](CO)[C@H](O)[C@H]1O | CIPT 140310003 (smooth) | 6 µg/mL
COc1cccc(CSc2ncnc3nc[nH]c23)c1 | NJ211 | >12.8 µg/mL

The first 3 rows once more:

Clc1nc(Sc2ccncc2)c2[nH]cnc2n1 ; strain: NJ211 ; result: >12.8 µg/mL
CCN(CC)CNC(=O)c1cnc(N(CC)CC)cn1 ; strain: ATCC49601 ; result: >128 µg/mL
COc1ccc(Sc2ncccn2)cc1OC ; strain: NJ211 ; result: >12.8 µg/mL